This series has as its target T1, RaaS (UniProt O86312).
T1 sequence (looked up, limits assumed): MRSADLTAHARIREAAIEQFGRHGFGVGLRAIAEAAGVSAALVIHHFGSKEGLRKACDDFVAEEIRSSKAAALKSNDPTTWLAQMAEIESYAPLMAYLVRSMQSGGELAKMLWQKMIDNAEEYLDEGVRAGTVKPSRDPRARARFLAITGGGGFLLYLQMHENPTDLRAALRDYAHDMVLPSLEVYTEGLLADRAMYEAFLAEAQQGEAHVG
Kind of series: EMSA. Conditions: 20 nM DNA, 170 nM RaaS (Fig 4C), recombinant protein, protein details: 6xHis (pET15-Tev), label: 32P (Fig 4C). In general terms: Mobility shift assays separate free from complexed probe on a gel.

The text below walks through data of publication PMC3993263.

Construct, isoform or probe ends are uncertain for at least one entry. At least one verdict rests on a figure or table, not on a statement of the authors. Protein sequences can lack the tags named with them.

Take “GGGATGAACGTACGTTTAATATCCTGAACATGCGTTCAG / GGGCTGAACGCATGTTCAGGATATTAAACGTACGTTCAT [Pr14 (WT)]”: the binding result is “binds”.
